Results of unrelated studies side by side (data: NIAID ChemDB).

All rows: tests in culture; organism: Mycobacterium tuberculosis

Fold resistance: result on the changed form divided by that on wild type. An empty or dashed field is not shown. Inhibition is in % at the dose shown (toxicity tests: loss of growth or viability). Zone: diameter of growth inhibition. MIC bound: limit read from a one-dose screen. Rows are shuffled and stem from different studies. A number after MIC or MFC names an inhibition level or a share of isolates. ECn: concentration that inhibits the pathogen or its effect by n%.

structure	tested at	changes	read by	read-out	conditions	cells	strain or isolate	value
CN[C@@H]1[C@H](O[C@H]2[C@H](O[C@H]3[C@H](O)[C@@H](O)[C@H](N=C(N)N)[C@@H](O)[C@@H]3N=C(N)N)O[C@@H](C)[C@]2(O)C=O)O[C@@H](CO)[C@H](O)[C@H]1O			resazurin	MIC			3426	1000 µg/mL
C[C@@H]1CCC23[C@H]1CC[C@@]2(C)C[C@@](C)(O)[C@H]3C				MIC			H37Rv	128 µg/mL
Cc1ccc2c(c1)Oc1nnc(Cl)cc1C(=O)N2Cc1ccccc1			BACTEC	EC50			H37Rv	<12.5 µg/mL
C[C@H](NCCNCCC(c1ccccc1)c1ccccc1)C1CCCCC1				MIC			H37Rv	3 µM
NNC(=O)c1ccncc1			resazurin	MIC			STB-9102	0.0625 µg/mL
Cc1ccc2c(c1)Oc1nnc(Cl)cc1C(=O)N2CCCC1CCCCC1	12.5 µg/mL		BACTEC	inhibition			H37Rv	54%
c1ccc2c(CSc3nc4ccccc4[nH]3)cccc2c1				MIC			My 331/88	32 µM
COc1cc(Cc2cnc(/N=C3\C(=O)N(CN4CCC(C)CC4)c4ccc(F)cc43)nc2N)cc(OC)c1OC				EC50			H37Rv	>6.25 µg/mL
CCCCCCCCCCCCCCc1sc(N)nc1-c1ccccc1	6.25 µg/mL		BACTEC	inhibition			H37Rv	0%
CCC(C)N(C(=S)NC)c1ccc(Cl)c(Cl)c1	1000 µg/mL		visual reading	zone				9.59 mm
COc1cc(OC)c2cc([N+](=O)[O-])c3ccc(=O)oc3c2c1			resazurin	MIC			H37RvSr	25 µg/mL
N#Cc1cc(SCc2cccc3ccccc23)ccn1				MIC			My 331/88	>250 µM
NNC(=O)c1ccncc1			resazurin	MBC			H37Rv	>60 µg/mL
COc1cc2c3c(cc4cc5c(cc4c3c1OC)OCO5)N(C=O)CC2			resazurin	MIC			H37RvRr	>50 µg/mL
Fc1ccc(N(Cc2ccco2)C(=S)Nc2ccccc2)cc1Cl	1000 µg/mL		visual reading	zone				17.81 mm
CC1(C)S[C@@H]2[C@H](NC(=O)[C@H](N)c3ccc(O)cc3)C(=O)N2[C@H]1C(=O)O				MIC50			24 strains (drug-susceptible)	128 µg/mL
c1ccc2oc(SCc3ccncc3)nc2c1				MIC			My 331/88	250 µM
COc1cc2c(cc1O)C[C@H]1c3c(cc(O)c(OC)c3-2)CCN1C	12.8 µg/mL		BACTEC	inhibition			H37Rv	6%
Cc1ccc2c(c1)N(CC1CCCCC1)C(=O)c1cc(Cl)nnc1O2	12.5 µg/mL		BACTEC	inhibition			H37Rv	66%
COc1cc(Cc2cnc(/N=C3\C(=O)N(CN4CCN(c5cccc(C(F)(F)F)c5)CC4)c4ccc(F)cc43)nc2N)cc(OC)c1OC				EC50			H37Rv	>6.25 µg/mL
CC1(C)[C@H]2CC[C@@H](CNCCNC3CCCCCCC3)[C@@H]1C2				MIC			H37Rv	1 µM
Cc1cc(=O)c2cc(N)ccc2[nH]1	12.5 µg/mL		BACTEC	inhibition			H37Rv	-11%
CCCCCN1C(=O)c2ccnnc2Oc2cc(C)ccc21	12.5 µg/mL		BACTEC	inhibition			H37Rv	34%
CC1COc2c(N3CCN(C)CC3)c(F)cc3c(=O)c(C(=O)O)cn1c23				MIC50			9 strains (MDR)	0.5 µg/mL
c1ccc(CSc2nc3ccccc3[nH]2)nc1				MIC			My 331/88	250 µM
C[N+](C)=c1ccc2nc3c(cc(Nc4cccc(Nc5cc6oc7cc(=[N+](C)C)ccc-7nc6c6ccccc56)n4)c4ccccc43)oc-2c1			BACTEC	MIC		VERO	H37Rv	0.16 µg/mL
O=C(O)c1cnccn1				MIC			H6927	480 µg/mL
NC(=S)c1cc(SCc2ccncc2)ccn1				MIC			My 331/88	16 µM
CCCCCN1C(=O)c2ccnnc2Oc2ccc(C)cc21	12.5 µg/mL		BACTEC	inhibition			H37Rv	41%
C=C[C@](C)(Cl)[C@@H](Br)/C=C/[C@](C)(Cl)CBr				MIC			H37Rv	>128 µg/mL
N#Cc1ccc(NNC(=O)N2CCN(c3nc(N4CCN(c5ccccc5)CC4)c4ccccc4n3)CC2)cc1	12.5 µg/mL		agar / visual reading	inhibition			H37Rv	93%
CNC(=S)N(c1ccc(F)c(Cl)c1)C(C)c1cccs1	1000 µg/mL		visual reading	zone				13.84 mm
C=C1C(=O)C2=CC1CCC(=O)C1(C)CCC(OC(C)=O)C(C)(C)C1CC2O			BACTEC	MIC			H37Rv	≥12.5 µg/mL
COc1cc(Cc2cnc(/N=C3\C(=O)N(CN4CCN(c5c(F)cc6c(=O)c(C(=O)O)cn(C7CC7)c6c5OC)CC4C)c4ccc(F)cc43)nc2N)cc(OC)c1OC	6.25 µg/mL			inhibition			H37Rv	100%
C=CCCCCO/N=C/c1c2c(O)c3c(O)c(C)c4c(c3c1O)C(=O)[C@@](C)(O/C=C/[C@H](OC)[C@@H](C)[C@@H](OC(C)=O)[C@H](C)[C@H](O)[C@H](C)[C@@H](O)[C@@H](C)/C=C/C=C(/C)C(=O)N2)O4				MIC			H37Rv	0.5 µg/mL
Cc1ccc2nc(SCc3cccnc3)[nH]c2c1				MIC			My 331/88	500 µM
CCCCC(CC)O/N=C/c1c2c(O)c3c(O)c(C)c4c(c3c1O)C(=O)[C@@](C)(O/C=C/[C@H](OC)[C@@H](C)[C@@H](OC(C)=O)[C@H](C)[C@H](O)[C@H](C)[C@@H](O)[C@@H](C)/C=C/C=C(/C)C(=O)N2)O4				MIC			H37Rv	1 µg/mL
Cn1c[n+](C)cc1C(=O)[O-]				MIC			H37Rv	>128 µg/mL
O=[N+]([O-])c1ccccc1Sc1nnc(N2CCN(c3nc(N4CCN(c5ccccc5)CC4)c4ccccc4n3)CC2)o1			agar / visual reading	MIC			H37Rv	12.5 µg/mL
Nc1ccc(C(=O)N/N=C/c2ccccc2O)cc1			BACTEC	MIC			H37Rv	≥12.5 µg/mL
NC[C@H]1O[C@H](O[C@H]2[C@H](O)[C@@H](O[C@H]3O[C@H](CO)[C@@H](O)[C@H](N)[C@H]3O)[C@H](N)C[C@@H]2N)[C@H](O)[C@@H](O)[C@@H]1O				MIC			Isolate 17	2 µg/mL
COc1cc(Cc2cnc(/N=C3\C(=O)N(CN(C)C)c4ccc(F)cc43)nc2N)cc(OC)c1OC				EC50			H37Rv	>6.25 µg/mL
Nc1nnc2nc3c4ccccc4c4ccccc4c3nn12	12.5 µg/mL		BACTEC	inhibition			H37Rv	99%
CO[C@H]1/C=C/O[C@@]2(C)Oc3c(C)c(O)c4c(O)c(c(/C=N/OC5CCCCC5)c(O)c4c3C2=O)NC(=O)/C(C)=C\C=C\[C@H](C)[C@H](O)[C@@H](C)[C@@H](O)[C@@H](C)[C@H](OC(C)=O)[C@@H]1C				MIC			H37Rv	0.2 µg/mL
CCCCCCN1C(=O)c2ccnnc2Oc2ccccc21			BACTEC	EC50			H37Rv	>12.5 µg/mL
NNC(=O)c1ccncc1		INH RIF resistant	resazurin	MIC			Clinical isolate 309	6.25 µg/mL
COc1cc(Cc2cnc(/N=C3\C(=O)N(CN4CCCC4)c4ccc(F)cc43)nc2N)cc(OC)c1OC	6.25 µg/mL			inhibition			H37Rv	36%
CNC(=S)N(Cc1ccco1)c1ccc(Cl)c(Cl)c1			visual reading	MIC				200 µg/mL
COc1cc(Cc2cnc(/N=C3\C(=O)N(CN4CCN(Cc5ccccc5)CC4)c4ccc(F)cc43)nc2N)cc(OC)c1OC				EC50			H37Rv	>6.25 µg/mL
NNC(=O)c1nc[nH]c1C(=O)NN	12.5 µg/mL		BACTEC	inhibition			H37Rv	10%
O=C1c2cc(Cl)nnc2Oc2ccc3ccccc3c2N1CC1CCCCC1			BACTEC	EC50			H37Rv	>12.5 µg/mL
CCO/C=N\C1=C(C#N)SC2=N/C(=C\c3ccco3)C(=O)N21	0.5 µM		BACTEC	inhibition				0%
CCC(C)NCCNC(CC)CO				MIC			H37Rv	150 µM
O=C(NNc1ccccc1[N+](=O)[O-])N1CCN(c2nc(N3CCN(c4ccccc4)CC3)c3ccccc3n2)CC1			agar / visual reading	MIC			H37Rv	12.5 µg/mL
CO[C@H]1/C=C/O[C@@]2(C)Oc3c(C)c(O)c4c(O)c(c(/C=N/N5CCN(C)CC5)c(O)c4c3C2=O)NC(=O)/C(C)=C\C=C\[C@H](C)[C@H](O)[C@@H](C)[C@@H](O)[C@@H](C)[C@H](OC(C)=O)[C@@H]1C				MIC			Isolate 11	>32 µg/mL
C[C@@H]1[C@H]2C[C@@H](C[C@H]1NCCNC1CCCCCCC1)C2(C)C				MIC			H37Rv	1 µM
Cc1ccc([C@]2(C)CC[C@@H]3C[C@@]32C)c(O)c1				MIC			H37Rv	64 µg/mL
CCOC(=O)c1cnc2c(ccc3ncccc32)c1NCCCN(CC)CC			BACTEC	MIC bound			H37Rv	>12.5 µg/mL
CC1=C2CC[C@]3(C)O[C@H]3CC/C(C)=C/CC/C(C)=C/[C@H]2OC1				MIC			H37Rv	64 µg/mL
CC(c1cccs1)N(C(=S)Nc1ccccc1)c1ccc(Cl)c(Cl)c1	1000 µg/mL		visual reading	zone				20.38 mm
C[C@H]1COc2c(N3CCN(C)CC3)c(F)cc3c(=O)c(C(=O)O)cn1c23				MIC90			19 strains	0.5 µg/mL
COc1ccc(-c2coc3cc(O)cc(O)c3c2=O)cc1			BACTEC	MIC bound			H37Rv	>12.8 µg/mL
CCCCCCCCS(=O)(=O)CC(N)=O				MIC			H37Rv	≤6.25 µg/mL
CC(=O)C(NC(=O)C(C)C(O)C(C)NC(=O)C(NC(=O)c1nc(C(CC(N)=O)NCC(N)C(N)=O)nc(N)c1C)C(OC1OC(CO)C(O)C(O)C1(C)OC1OC(CO)C(O)C(O)(C(N)=O)C1O)c1cnc[nH]1)C(=O)NCCC1=NC(c2nc(C(N)=O)cs2)CS1				MIC			CS-R	<0.002 µg/mL
CCC(CO)NCCNC(CC)CO				MIC			H37Rv	37.5 µM
[C-]#[N+][C@@]1(C)CC[C@H]2[C@H]3C(=C(C)CC[C@@H]31)[C@H](C=C(C)C)C[C@@H]2C				MIC			H37Rv	4 µg/mL
CNC(=S)N(Cc1ccco1)c1ccc(F)c(Cl)c1	1000 µg/mL		visual reading	zone				12.6 mm
CCc1ccc([C@H]2C[C@@H](C(F)(F)F)n3ncc(C(=O)NCc4ccc5c(c4)OCO5)c3N2)cc1		MmpL3: Phe644Cys	fluorescence	fold resistance			H37Rv	22.5
CC12CC3(Nc4ccccc4C3(C)O)OC1(C)c1ccccc1N2			BACTEC	MIC bound			H37Rv	>12.5 µg/mL
NCCCN1c2ccccc2Sc2ccccc21			resazurin	MIC			H37Rv	0.312 µg/mL
O=C1c2cccc(NCC3CO3)c2C(=O)c2cccc(NCC3CO3)c21			resazurin	MIC			H37Rv	12.5 µg/mL
CC1(C)[C@H]2CC[C@@H](CNCCNCCC(c3ccccc3)c3ccccc3)[C@@H]1C2				MIC			H37Rv	1 µM
CC(=O)N=C1N(/C=C2\C(=O)Oc3ccccc3C2=O)C(=O)/C(=C/c2ccc(OC(C)=O)cc2)N1C	12.5 µg/mL		BACTEC	inhibition			H37Rv	0%
Cc1ccc(NNC(=O)N2CCN(c3nc(N4CCN(c5ccccc5)CC4)c4ccccc4n3)CC2)cc1			agar / visual reading	MIC			H37Rv	50 µg/mL
C(=N\N=C(N/N=C/C1CNCCN1)N/N=C/C1CNCCN1)/C1CNCCN1			BACTEC	MIC bound			H37Rv	>12.5 µg/mL
COCCOCCO/N=C/c1c2c(O)c3c(O)c(C)c4c(c3c1O)C(=O)[C@@](C)(O/C=C/[C@H](OC)[C@@H](C)[C@@H](OC(C)=O)[C@H](C)[C@H](O)[C@H](C)[C@@H](O)[C@@H](C)/C=C/C=C(/C)C(=O)N2)O4				MIC			H37Rv	0.5 µg/mL
CCC[C@@H](OC(C)=O)C1=C(Br)/C(=C/Br)OC1=O				MIC			H37Rv	>128 µg/mL
CC(=O)NNc1nc(C)c(C(C=Cc2ccc(Cl)cc2)=NN=C(N)N)s1	6.25 µg/mL		resazurin	inhibition			H37Rv	13%
O=[N+]([O-])[O][Ga]([O][N+](=O)[O-])[O][N+](=O)[O-]				EC50	inside macrophages		H37Ra	<375 µM
CCCCC(=O)N/N=C/c1ccc([N+](=O)[O-])s1			BACTEC	MIC		VERO	H37Rv	6.25 µg/mL
Cc1ccc(Sc2nnc(N3CCN(c4nc(N5CCN(c6ccccc6)CC5)c5ccccc5n4)CC3)o2)cc1			BACTEC / fluorescence	MIC			H37Rv	>6.25 µg/mL
CCC(=O)Nc1ccc(C)c(Cl)c1			BACTEC	MIC bound			H37Rv	>12.5 µg/mL
NNC(=O)c1ccncc1				MIC			Isolate 6	4 µg/mL
Nc1cccc2c1C(=O)c1ccc(Cl)cc1C2=O	12.5 µg/mL		BACTEC	inhibition			H37Rv	55%
CC(C)N(C(=S)Nc1ccccc1)c1ccc(F)c(Cl)c1	1000 µg/mL		visual reading	zone				10.06 mm

10 of the rows above, restated:

structure	tested at	changes	read by	read-out	conditions	cells	strain or isolate	value
C[C@@H]1CCC23[C@H]1CC[C@@]2(C)C[C@@](C)(O)[C@H]3C				MIC			H37Rv	128 µg/mL
CCCCC(=O)N/N=C/c1ccc([N+](=O)[O-])s1			BACTEC	MIC		VERO	H37Rv	6.25 µg/mL
NC(=S)c1cc(SCc2ccncc2)ccn1				MIC			My 331/88	16 µM
CCCCCCCCS(=O)(=O)CC(N)=O				MIC			H37Rv	≤6.25 µg/mL
Cc1ccc2nc(SCc3cccnc3)[nH]c2c1				MIC			My 331/88	500 µM
CC(=O)N=C1N(/C=C2\C(=O)Oc3ccccc3C2=O)C(=O)/C(=C/c2ccc(OC(C)=O)cc2)N1C	12.5 µg/mL		BACTEC	inhibition			H37Rv	0%
CCCCCN1C(=O)c2ccnnc2Oc2ccc(C)cc21	12.5 µg/mL		BACTEC	inhibition			H37Rv	41%
CC1(C)[C@H]2CC[C@@H](CNCCNCCC(c3ccccc3)c3ccccc3)[C@@H]1C2				MIC			H37Rv	1 µM
CC12CC3(Nc4ccccc4C3(C)O)OC1(C)c1ccccc1N2			BACTEC	MIC bound			H37Rv	>12.5 µg/mL
COc1cc(Cc2cnc(/N=C3\C(=O)N(CN4CCN(Cc5ccccc5)CC4)c4ccc(F)cc43)nc2N)cc(OC)c1OC				EC50			H37Rv	>6.25 µg/mL